The compounds below were run on HCV-PV chimera.
Work on `CCC(=O)Nc1ccc(C#Cc2c(C#N)c3ccc(OC)cc3n2CC)cc1` [Compound 82] yielded an IC50 of less than 500 nM. `CCn1c(-c2cccc(NC(=O)NC(C)C)c2)c(C#N)c2ccc(OC)cc21` [Compound 397] was tested, and the IC50 was less than 500 nM. `CCNC(=O)Nc1cccc(-c2c(C#N)c3ccc(OC)cc3n2CC)c1` [Compound 401] was tested, and the IC50 was less than 500 nM. Work on `CCCOC(=O)Nc1ccc(-c2c(C#N)c3ccc(OC(F)F)cc3n2CC2CC2)cc1` yielded an IC50 of less than 500 nM. Compound `CCn1c(-c2ccc(NC(=O)COC)cc2)c(C#N)c2ccc(OC(C)C)cc21` has an IC50 of less than 500 nM. `CCn1c(-c2ccc(NC(=O)OC)cc2)c(C#N)c2ccc(OCCF)cc21` [Compound 545] showed an IC50 of 500 to 2000 nM. In the case of `CCn1c(C#Cc2ccc(NC(=O)C3CCC3)cc2)c(C#N)c2ccc(OC)cc21` [Compound 153], the IC50 is reported as greater than 2000 nM. In the case of `CCn1c(-c2ccc(NS(=O)(=O)C(C)C)cc2)c(C#N)c2ccc(OC)cc21` [Compound 88], the IC50 is reported as less than 500 nM. With `CCn1c(C#Cc2ccc(NC(=O)COC)cc2)c(C#N)c2ccc(OC)cc21` [Compound 139] the IC50 was less than 500 nM. `CCCS(=O)(=O)Nc1ccc(-c2c(C#N)c3ccc(OC)cc3n2CC)cc1` [Compound 251] was tested, and the IC50 was less than 500 nM. For `CCOc1ccc2c(C#N)c(-c3ccc(N(C)S(C)(=O)=O)cc3)n(C)c2c1`, the IC50 was 500 to 2000 nM. With `CCCNC(=O)Nc1cccc(-c2c(C#N)c3ccc(OC)cc3n2CC)c1` [Compound 396] the IC50 was less than 500 nM. For `CCn1c(-c2ccc(NC(=O)C3CC3)cc2)c(C#N)c2ccc(OC)cc21` [Compound 81], the IC50 was less than 500 nM. In the case of `CCCn1c(-c2ccc(NS(=O)(=O)CC)cc2)c(C#N)c2ccc(OC)cc21` [Compound 85], the IC50 is reported as less than 500 nM. Work on `CCn1c(-c2ccc(NC(=O)C3CC3)cc2)c(C#N)c2ccc(OCCF)cc21` [Compound 544] yielded an IC50 of less than 500 nM.
